# According to PMC8545107 (mBio, 2021):
# Where a sequence shows no end group, the ends are not given.
# Assay: general procedure: peptide synthesis; Cl-MPA Protide resin (LL)
# Conditions: whole synthesis
row,Sequence,final HPLC purity [%]
1,LKKNHKPTKHA,> 98
2,DFLIVGPFDWLKKNHKPTKH,> 96
3,DFLIVAPFDWLKKNHKPTKHA,> 99
4,DWLKKNHKPTKHA,> 98
5,DFLIVGPFDWLKKNHAPTKHA,> 99
6,DFLIAGPFDWLKKNHKPTKHA,> 99
7,NKDFLIVGPFDWLKKNHKPTKHA,> 98
8,DFLIVGAFDWLKKNHKPTKHA,> 99
9,DFLIVGPFDWLKKNHKPTK,> 98
10,DFLIVGPADWLKKNHKPTKHA,> 99
11,WLKKNHKPTKHA,> 96
12,DFLIVGPFDWLKKNAKPTKHA,> 99
13,DFLIVGPFDWAKKNHKPTKHA,> 99
14,DFLIVGPFDWLKKNHKPT,> 99
15,PFDWLKKNHKPTKHA,> 99
16,DFLIVGPFDWLKANHKPTKHA,> 99
17,DFLIVGPFDWLKKAHKPTKHA,> 97
18,DFLAVGPFDWLKKNHKPTKHA,> 99

row,Sequence,final HPLC purity [%]
1,KNKDFLIVGPFDWLKKNHKPTKHA,> 99
2,GPFDWLKKNHKPTKHA,> 96
3,LIVGPFDWLKKNHKPTKHA,> 96
4,FLIVGPFDWLKKNHKPTKHA,> 97
5,DFLIVGPFDALKKNHKPTKHA,> 97
6,VGPFDWLKKNHKPTKHA,> 98
7,DALIVGPFDWLKKNHKPTKHA,> 96
8,DFLIVGPFDWLKKNHKATKHA,> 98
9,DFAIVGPFDWLKKNHKPTKHA,> 98
10,FDWLKKNHKPTKHA,> 97
11,DFLIVGPFDWLAKNHKPTKHA,> 98
12,DFLIVGPFAWLKKNHKPTKHA,> 99
13,DFLIVGPFDWLKKNHKPTKAA,> 98
14,AFLIVGPFDWLKKNHKPTKHA,> 99
15,IVGPFDWLKKNHKPTKHA,> 99
16,DFLIVGPFDWLKKNHKPAKHA,> 95
17,DFLIVGPFDWLKKNHKPTAHA,> 99
18,KDFLIVGPFDWLKKNHKPTKHA,> 97
